The structures appear in SMILES notation.

The assay concerns influenza B virus strain Massachusetts/6/93. Particulars: U0126 50 μM, multiple passaging.

`N#CC(=C(N)Sc1ccccc1N)C(C#N)=C(N)Sc1ccccc1N` [U0126, 1,4-diamino-2,3-dicyano-1,4-bis(2-aminophenylthio)butadiene]: the “formation of resistant virus variants (virus titer on passaging)” value was “without resistant virus variants being formed”.

These data come from US20100239563A1 (priority 2001, published 2010).
